{"source": "PubChem BioAssay AID624099, ICCB-Longwood, 2012", "purpose": "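Human genes that papillomavirus E2 requires to repress the HPV18 LCR promoter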 (primary screen)", "system": "human C33A cervical carcinoma cells (HPV-negative) stably expressing BPV1 E2 and an HPV18 LCR luciferase reporter", "reagent": "siRNA pool against human genes, 40 nM", "duration": "72 h", "measured": "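Per-well luciferase luminescence, z-scored on each plate against the plate mean and SD with control wells left out, then averaged across three replicate plates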", "direction": "mean z-score and z-score: higher = stronger reporter signal, weaker E2 silencing", "active means": "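Mean z ≥ 2 together with z ≥ 2 in two or more of the three replicates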", "note": "In all, the deposit lists about 21,000 reagents; this is an unselected part. 497 of them (2.4%) were called active. 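Higher z means weaker E2 silencing; only reporter increases were scored, and knock-downs that hurt cell survival may mask genuine repressor factors.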 Entries without a mark were called inactive. No sequences are given here."}
The first 2 records as a preview:
{"target":"LOC392559 (retired record)","mean z-score":-0.6,"z-score, replicate A":-0.25,"z-score, replicate B":-0.78,"z-score, replicate C":-0.76}
{"target":"BROX (BRO1 domain and CAAX motif containing)","mean z-score":1.42,"z-score, replicate A":1.67,"z-score, replicate B":1.17,"z-score, replicate C":1.42}

The listing, from the first entry:
{"target":"LOC392559 (retired record)","mean z-score":-0.6,"z-score, replicate A":-0.25,"z-score, replicate B":-0.78,"z-score, replicate C":-0.76}
{"target":"BROX (BRO1 domain and CAAX motif containing)","mean z-score":1.42,"z-score, replicate A":1.67,"z-score, replicate B":1.17,"z-score, replicate C":1.42}
{"target":"ARMCX5 (armadillo repeat containing X-linked 5)","mean z-score":-0.49,"z-score, replicate A":-0.23,"z-score, replicate B":-0.79,"z-score, replicate C":-0.46}
{"target":"DOCK5 (dedicator of cytokinesis 5)","mean z-score":1.58,"z-score, replicate A":1.4,"z-score, replicate B":2,"z-score, replicate C":1.33}
{"target":"METTL8 (methyltransferase 8, tRNA N3-cytidine)","mean z-score":-0.35,"z-score, replicate A":-0.99,"z-score, replicate B":-0.25,"z-score, replicate C":0.18}
{"target":"ABCC10 (ATP binding cassette subfamily C member 10)","mean z-score":1.29,"z-score, replicate A":1.58,"z-score, replicate B":1.09,"z-score, replicate C":1.2}
{"target":"ZBTB41 (zinc finger and BTB domain containing 41)","mean z-score":-0.69,"z-score, replicate A":-0.82,"z-score, replicate B":-0.86,"z-score, replicate C":-0.39}
{"target":"TNRC6B (trinucleotide repeat containing adaptor 6B)","mean z-score":0.75,"z-score, replicate A":0.94,"z-score, replicate B":0.55,"z-score, replicate C":0.75}
{"target":"TUBA3D (tubulin alpha 3d)","mean z-score":0.49,"z-score, replicate A":0.81,"z-score, replicate B":0.44,"z-score, replicate C":0.22}
{"target":"GTPBP4 (GTP binding protein 4)","mean z-score":-0.71,"z-score, replicate A":-0.94,"z-score, replicate B":-0.44,"z-score, replicate C":-0.75}
{"target":"STAG2 (STAG2 cohesin complex component)","mean z-score":0.78,"z-score, replicate A":0.73,"z-score, replicate B":0.66,"z-score, replicate C":0.94}
{"target":"MRPL21 (mitochondrial ribosomal protein L21)","mean z-score":0.05,"z-score, replicate A":-0.14,"z-score, replicate B":0.05,"z-score, replicate C":0.23}
{"target":"SNX3 (sorting nexin 3)","mean z-score":-0.03,"z-score, replicate A":-0.05,"z-score, replicate B":0.04,"z-score, replicate C":-0.09}
{"target":"PRDM16 (PR/SET domain 16)","mean z-score":-0.81,"z-score, replicate A":-0.6,"z-score, replicate B":-0.95,"z-score, replicate C":-0.88}
